Anti-infective test results gathered from many reports (values: NIAID ChemDB through PubChem).

Shared fields: whole-cell or culture tests; species: HIV-1; read-out: fold resistance

An empty or dashed field is not shown. Rows are shuffled and stem from different studies. Fold resistance: result on the changed form divided by that on wild type.

smiles,method,cell line,changes,strain,result
CCN1c2ncc(CCOc3ccc(-c4ccc(C(=O)O)cc4)cc3)cc2C(=O)N(C)c2cccnc21,p24,C8166,RT-K103N Y181C,,>5
Cc1ccc(Oc2cn(C)c(=O)c(Nc3ccc(F)cc3)n2)c(C)c1,cytopathic effect / MTT,MT-4,RT-L100I,,>7.95
CC(C)=CCOc1cc(NC(=S)c2ccoc2C)ccc1Cl,syncytia,CEM,RT-V106A,IIIB,1.7
Cc1cc(C)cc(S(=O)(=O)c2c(C(=O)/C=C/C(N)=O)[nH]c3ccc(Cl)cc23)c1,cytopathic effect / MTT,MT-4,RT-Y181C,,10
CCN1c2ncc(CCOc3ccc(-c4cn(C)cn4)cc3C)cc2C(=O)N(C)c2cccnc21,p24,C8166,RT-K103N Y181C,,1
CNc1nc2ccc(S(=O)(=O)N(CC(C)C)C[C@@H](O)[C@H](Cc3ccccc3)NC(=O)COc3c(C)cccc3C)cc2o1,cytopathic effect / MTT,MT-4,PR-L010F M046I M071V I084V,LAI,7.1
Cc1ccnc(SC(F)(F)c2nc3ccccc3o2)n1,,,RT-P236L,HEPT/236 (RT P236L),1.64
O=C1Nc2ccc(Cl)cc2[C@@](/C=C/C2CC2)(C(F)(F)F)N1,,,RT-K103N Y181C,,60
CC(C)c1c(Sc2ccccc2)n(COCCO)c(=O)[nH]c1=O,syncytia,CEM,RT-K103N,IIIB TIBO R82913-resistant (RT K103N),≥357
Cc1cc(S(N)(=O)=O)ccc1NC(=O)COc1ccc(Cl)cc1C(=O)c1cc(Cl)cc(C#N)c1,β-galactosidase,HeLa + HELA CD4+,RT-Y181C,HXB2,~1
CNc1nc2ccc(S(=O)(=O)N(CC(C)C)C[C@@H](O)[C@H](Cc3ccccc3)NC(=O)OCc3cncs3)cc2o1,cytopathic effect / MTT,MT-4,PR-L010F M046I M071V I084V,LAI,36
Nc1nc(=O)n([C@H]2C=C[C@@H](CO)O2)cc1F,p24,PBMC,RT-M41L D67N K70R T215Y K219Q,XM-AZT-resistant,0.6
CCOCn1c(Cc2cccc(Cc3[nH]c(=O)[nH]c(=O)c3CC)c2)c(CC)c(=O)[nH]c1=O,cytopathic effect / MTT,MT-4,RT-Y181C,NNRTI-resistant,>2.1
Cc1c(C(=O)N[C@@H](Cc2ccccc2)[C@H](O)CN(CC(C)C)S(=O)(=O)c2ccc3nc(N)oc3c2)ccc2ncoc12,cytopathic effect / MTT,MT-4,PR-L010F M046I M071V I084V,LAI,28
CCCc1cc(=O)oc2c3c(c4c(c12)OC(C)(C)CC4)O[C@H](C)[C@@H](C)C3=O,cytopathic effect / XTT,,RT-L100I,,>68
O=c1cc(Cc2ccc3ccccc3c2)nc(SC2CCCC2)[nH]1,cytopathic effect / MTT,MT-4,RT-V179D,MC639(RT-V179D),11.8
Cc1cc2cn[nH]c2cc1NC(=O)COc1ccc(Cl)cc1C(=O)c1cccc(C#N)c1,β-galactosidase,HeLa + HELA CD4+,RT-P236L,HXB2,~10
C=C(C)[C@@H]1CC[C@]2(C(=O)NCCCCCCCC(=O)N[C@@H](CC(C)C)[C@@H](O)CC(=O)O)CC[C@]3(C)[C@H](CC[C@@H]4[C@@]5(C)CC[C@H](O)C(C)(C)[C@@H]5CC[C@]43C)[C@@H]12,syncytia,HeLa P4 + HeLa,GP41-K106R,LAI,~1
Cc1cc(C)cc(S(=O)(=O)c2c(C(N)=O)[nH]c3c(Cl)cc(Cl)cc23)c1,cytopathic effect / MTT,MT-4,RT-K103N Y181C,,>62.5
CCOCn1c(Cc2ccccc2)c(C(C)C)c(=O)[nH]c1=O,cytopathic effect / MTT,MT-4,RT-K103N Y181C,RT-K103N+Y181C NNRTI-resistant,>3330
CCN1c2ncc(CCOc3ccc(C(=O)NNC)cc3C)cc2C(=O)N(C)c2cccnc21,p24,C8166,RT-K103N Y181C,,1
NC(=O)c1[nH]c2ccc(Cl)cc2c1S(=O)(=O)c1ccccc1,cytopathic effect / MTT,MT-4,RT-K103N Y181C,,8000
Cc1cc(C#N)cc(C(=O)c2cc(Cl)ccc2OCC(=O)Nc2cnc(S(N)(=O)=O)cc2C)c1,β-galactosidase,HeLa + HELA CD4+,RT-V106A Y181C,HXB2,~1
FC(F)(Sc1ncccn1)c1nc2ccccc2o1,,,RT-P236L,HEPT/236,2.57
Cc1cc(C#N)cc(C(=O)c2cc(Cl)ccc2OCC(=O)Nc2ccc(S(N)(=O)=O)nc2C)c1,β-galactosidase,HeLa + HELA CD4+,RT-K103N P225H,HXB2,~1
CCOCn1c(Cc2ccccc2)c(C(C)C)c(=O)[nH]c1=O,syncytia,CEM,RT-L100I,IIIB (TIBO 82150) (RT-L100I),10
Cc1cc(C)c(Oc2nc(Nc3ccc(C#N)cc3)c(=O)n(C)c2C)c(C)c1,cytopathic effect / MTT,MT-4,RT-K103N,,31.6
Nc1nc(NC2CC2)c2ncn([C@H]3C=C[C@@H](CO)C3)c2n1,p24,MT-4,RT-M41L D67N K70R T215Y K219Q,XM-AZT-resistant,2.2
CCN1c2ncc(CCOc3ccc(-c4ccc(C(O)C(=O)O)cc4)cc3C)cc2C(=O)N(C)c2cccnc21,p24,C8166,RT-K103N Y181C,,1
CCc1c(Sc2cc(C)cc(C)c2)n(COCCO)c(=S)[nH]c1=O,syncytia,CEM,RT-K103N,IIIB TIBO R82913-resistant (RT K103N),82.5
C=CCOCn1c(Cc2cccc(Cc3[nH]c(=O)[nH]c(=O)c3CC)c2)c(CC)c(=O)[nH]c1=O,cytopathic effect / MTT,MT-4,RT-Y181C,NNRTI-resistant,>9.1
CCN1c2ncc(CCOc3ccc(-c4ccccn4)cc3C)cc2C(=O)N(C)c2cccnc21,p24,C8166,RT-K103N Y181C,,1
C=CCOCn1c(Cc2cccc(Cc3c(CC)c(=O)[nH]c(=O)n3COCC=C)c2)c(CC)c(=O)[nH]c1=O,cytopathic effect / MTT,MT-4,RT-Y181C,NNRTI-resistant,>2.9
CCN1c2ncc(CCOc3ccc(C(=O)NC(C)(C)CC(=O)O)cc3C)cc2C(=O)N(C)c2cccnc21,p24,C8166,RT-K103N Y181C,,>5
Cc1ncnc(C)c1OCC(=O)N[C@@H](Cc1ccccc1)[C@H](O)CN(CC(C)C)S(=O)(=O)c1ccc2nc(N)oc2c1,cytopathic effect / MTT,MT-4,PR-L010F M046I M071V I084V,LAI,170
O=C1Nc2ccc(Cl)cc2[C@@](C#CC2CC2)(C(F)(F)F)N1,,,RT-K103N Y181C,,13.2
Cc1nc(N)nc(C)c1OCC(=O)N[C@@H](Cc1ccccc1)[C@H](O)CN(CC(C)C)S(=O)(=O)c1ccc2nc(N)oc2c1,cytopathic effect / MTT,MT-4,PR-L010F M046I M071V I084V,LAI,62
CC1=C(C(=O)Nc2ccc(Cl)c(C(=O)OC(C)C)c2)SCCO1,syncytia,CEM,RT-Y181C,IIIB,1000
CCc1c(Sc2cc(C)cc(C)c2)n(COCc2ccccc2)c(=O)[nH]c1=O,syncytia,CEM,Nevirapine resistant (RT Y181C),IIIB,100

For reference, 5 entries again:

CCc1c(Sc2cc(C)cc(C)c2)n(COCc2ccccc2)c(=O)[nH]c1=O ; method: syncytia ; cell line: CEM ; changes: Nevirapine resistant (RT Y181C) ; strain: IIIB ; result: 100
CCOCn1c(Cc2cccc(Cc3[nH]c(=O)[nH]c(=O)c3CC)c2)c(CC)c(=O)[nH]c1=O ; method: cytopathic effect / MTT ; cell line: MT-4 ; changes: RT-Y181C ; strain: NNRTI-resistant ; result: >2.1
C=C(C)[C@@H]1CC[C@]2(C(=O)NCCCCCCCC(=O)N[C@@H](CC(C)C)[C@@H](O)CC(=O)O)CC[C@]3(C)[C@H](CC[C@@H]4[C@@]5(C)CC[C@H](O)C(C)(C)[C@@H]5CC[C@]43C)[C@@H]12 ; method: syncytia ; cell line: HeLa P4 + HeLa ; changes: GP41-K106R ; strain: LAI ; result: ~1
Cc1c(C(=O)N[C@@H](Cc2ccccc2)[C@H](O)CN(CC(C)C)S(=O)(=O)c2ccc3nc(N)oc3c2)ccc2ncoc12 ; method: cytopathic effect / MTT ; cell line: MT-4 ; changes: PR-L010F M046I M071V I084V ; strain: LAI ; result: 28
CCCc1cc(=O)oc2c3c(c4c(c12)OC(C)(C)CC4)O[C@H](C)[C@@H](C)C3=O ; method: cytopathic effect / XTT ; changes: RT-L100I ; result: >68